Results of unrelated studies side by side (data: NIAID ChemDB).

Shared fields: toxicity to cultured cells; cell line: MT-4; endpoint: CC50

Neighbouring rows are from separate reports.

structure,read by,value
COc1c(O)c(Cl)c2c(c1OC)-c1c(c(Cl)c(O)c(OC)c1OC)C[C@H](C)[C@H](C)C2,-,41.9 µM
CC(C)(C)OC(=O)N1CCC(NC(=O)c2cc(O)c(O)c(O)c2)CC1,MTT,42.9 µM
Cc1cc(C)c(Oc2ccc([N+](=O)[O-])c(NC3CCN(Cc4ccncc4)CC3)n2)c(C)c1,MTT,>279 µM
c1cc(CNCCCN2CCOCC2)ccc1CNCCCN1CCOCC1,MTT,>320.1 µM
CC(C)=CCN1C(C)Cn2c(=O)n(CC=C(C)C)c3cc(Cl)cc(c32)S1(=O)=O,MTT,63 µM
C[C@@H]1O[C@@H](Oc2c(-c3ccc(O)c(O)c3)oc3cc(O)cc(O)c3c2=O)[C@H](O)[C@H](O)[C@H]1O,-,>100 µg/mL
CC(C)(C)OC(=O)NCCCCCCNC(=O)/C=C/c1cn([C@H]2C=C[C@@H](CO)O2)c(=O)[nH]c1=O,-,66 µM
Cc1cc(C#N)cc(C)c1Oc1ccc(N)c(NC2CCN(Cc3ccncc3)CC2)n1,MTT,31 µM
CCOC(=O)c1ccc(NC(=O)CSc2nncnc2-c2cccc3ccccc23)c(Cl)c1,MTT,150 µM
Cc1ccc(C(=O)Nc2ccc(S(=O)(=O)O)c3cc(S(=O)(=O)O)cc(S(=O)(=O)O)c23)cc1NC(=O)c1cccc(NC(=O)Nc2cccc(C(=O)Nc3cc(C(=O)Nc4ccc(S(=O)(=O)O)c5cc(S(=O)(=O)O)cc(S(=O)(=O)O)c45)ccc3C)c2)c1,-,>500 µM
O=S1(=O)NC(Cc2ccc3ccccc3c2)=CC(=NC2CC2)N1,MTT,218 µM
Cc1cc(C#N)cc(C)c1Oc1ccc(N)c(NC2CCN(Cc3ccc(C(N)=O)cc3)CC2)n1,MTT,27 µM
CC1CCCCN1CCCNCc1ccc(CNCCCN2CCCCC2C)cc1,MTT,>60.3 µM
Cc1cc(/C(Cl)=C\C#N)cc(C)c1Nc1ccnc(Nc2ccc(C#N)cc2)n1,MTT,30 µM
Cc1cc(-c2ccc(N=Nc3ccc4c(S(=O)(=O)O)cc(S(=O)(=O)O)c(N)c4c3O)c(C)c2)ccc1N=Nc1ccc2c(S(=O)(=O)O)cc(S(=O)(=O)O)c(N)c2c1O,-,196 µM
CC(C)(C)OC(=O)N1CCCN(C(=O)OC(C)(C)C)CCN(C(=O)OC(C)(C)C)CCCN(C(=O)CCCC(=O)OC[C@@H]2CC[C@H](n3cnc4c(=O)[nH]cnc43)O2)CC1,-,50 µM
C[C@@H]1O[C@@H](Oc2c(-c3ccc(O)cc3)oc3cc(O)cc(O)c3c2=O)[C@H](O)[C@H](O)[C@H]1O,-,>100 µg/mL
N#Cc1ccc(NC2=NS(=O)(=O)NC(Cc3cccc4ccccc34)=C2)cc1,MTT,254 µM
O=C(CSc1nncnc1-c1cccc2ccccc12)Nc1cccnc1Cl,MTT,44 µM
C[C@@H]1C(=O)Nc2ccc(Cl)cc2S(=O)(=O)N1Cc1c(F)cccc1F,MTT,>200 µM
C/C(C#N)=C/c1cc(C)c(Nc2ccnc(Nc3ccc(C#N)cc3)n2)c(C)c1,MTT,3 µM
COc1ccc(/C=N/NC(=O)c2csc(N3N=C(c4ccccc4)CC3c3ccc(Cl)cc3)n2)cc1,MTT / absorbance,>125 µM
c1cc(CNCCCCN2CCCCC2)ccc1CNCCCCN1CCCCC1,MTT,>60.29 µM
C=C1[C@H](CO)[C@@H](O)C[C@@H]1n1cnc2c(=O)[nH]c(N)nc21,MTT,27.78 µM
O=c1[nH]cnc2c1ncn2[C@H]1CC[C@@H](CO)O1,-,>100 µM
COc1c(O)c(I)c2c(c1OC)-c1c(c(I)c(O)c(OC)c1OC)C[C@H](C)[C@H](C)C2,-,21 µM
Cc1cn([C@@H]2O[C@H](CO[Si](C)(C)C(C)(C)C)C3(OS(=O)(=O)C=C3N)[C@H]2O[Si](C)(C)C(C)(C)C)c(=O)n(CC(=O)N[C@@H](C)C(=O)OCc2ccccc2)c1=O,-,≥250 µM
COc1ccc(C(=O)N2CCC(NC(=O)c3cc(O)c(O)c(O)c3)CC2)cc1,MTT,85.7 µM
Cc1ccnc2c1NC(=O)c1cccnc1N2C1CC1,MTT,>15.02 µM
CC1CCCCN1CCCNCc1ccc(CNCCCN2CCOCC2)cc1,MTT,>62.1 µM
COc1cccc(/C=N/NC(=O)c2csc(N3N=C(c4ccccc4)CC3c3ccc(Cl)cc3)n2)c1O,MTT / absorbance,>125 µM
Cc1ccnc2c1NC(=O)c1cccnc1N2C1CC1,MTT,>15 µM
CC1CCCCN1CCCNCc1ccc(CC(=O)NCCCN2CCCCC2)cc1,MTT,>58.32 µM
Cc1cc(C)c(Oc2ccc(N)c(NC3CCN(Cc4ccncc4)CC3)n2)c(C)c1,MTT,30 µM
COCn1c(C(=O)c2cccc3ccccc23)c(C(C)C)c(=O)[nH]c1=O,MTT,42.98 µM
O=C(OC[C@H]1O[C@@H](OC(=O)c2ccccc2)[C@H](OC(=O)c2ccccc2)[C@@H](O)[C@@H]1O)c1ccccc1,-,25 µg/mL
CCN1c2ncccc2N(C)C(=S)c2oc3cccnc3c21,-,>250 µM
O=C(CSc1nncnc1-c1cccc2ccccc12)Nc1ccccc1Br,MTT,87 µM
NS(=O)(=O)c1ccc(NC2=NS(=O)(=O)NC(Cc3ccccc3)=C2)cc1,MTT,>318 µM
Cc1ccnc2c1NC(=O)c1cccnc1N2C1CC1,MTT,>2 µM
COc1ccccc1/C=N/NC(=O)c1csc(N2N=C(c3ccccc3)CC2c2ccc(Cl)cc2)n1,MTT / absorbance,10.32 µM
Cc1cc(C)c(Oc2ccc(N)c(NC3CCN(Cc4ccc(S(C)(=O)=O)cc4)CC3)n2)c(C)c1,MTT,28 µM
CCN1c2ncccc2N(C)C(=S)c2sc3cccnc3c21,-,40 µM
COc1cc(/C=N/NC(=O)c2csc(N3N=C(c4ccccc4)CC3c3ccc(Cl)cc3)n2)ccc1OCc1ccccc1,MTT / absorbance,>125 µM
CCc1c(C(=O)c2cccc3ccccc23)n(C/C=C/C(=O)OC)c(=O)[nH]c1=O,MTT,34.44 µM
O=C(CSc1nncnc1-c1ccccc1Cl)Nc1cccnc1Cl,MTT,167 µM
CCN1C(C)C(=O)Nc2c([N+](=O)[O-])cc(Cl)cc2S1(=O)=O,MTT,105 µM
O=S1(=O)N=C(Nc2ccccc2)C=C(Cc2ccccc2)N1,MTT,292 µM
Nc1ccc(C(=O)N2CCC(NC(=O)c3cc(O)c(O)c(O)c3)CC2)cc1,MTT,35.6 µM
CC(C)(C)OC(=O)N1CCCN(C(=O)OC(C)(C)C)CCN(C(=O)OC(C)(C)C)CCCN(CCCCC(=O)Nc2ccn([C@H]3CC[C@@H](COC(=O)CCCCN4CCCN(C(=O)OC(C)(C)C)CCN(C(=O)OC(C)(C)C)CCCN(C(=O)OC(C)(C)C)CC4)O3)c(=O)n2)CC1,-,10 µM
Cc1cn([C@@H]2O[C@H](CO[Si](C)(C)C(C)(C)C)[C@@]3(OS(=O)(=O)C=C3N)[C@H]2O[Si](C)(C)C(C)(C)C)c(=O)n(CC(=O)N[C@@H](CCC(=O)O)C(=O)O)c1=O,-,>250 µM
O=C(CSc1nncnc1-c1cccc2ccccc12)Nc1ccccc1F,MTT,65 µM
O=c1[nH]cnc2c1ncn2[C@H]1CC[C@@H](CO)O1,MTT,>50 µg/mL
C=CCn1c(C(=O)c2cccc3ccccc23)c(C(C)C)c(=O)[nH]c1=O,MTT,37 µM
O=C(N/N=C/c1ccc([N+](=O)[O-])cc1)c1csc(N2N=C(c3ccccc3)CC2c2ccc(Cl)cc2)n1,MTT / absorbance,105.9 µM
CN(C)C1=NS(=O)(=O)NC(Cc2ccc3ccccc3c2)=C1,MTT,268 µM
C[C@H]1C(=O)Nc2ccc(Cl)cc2S(=O)(=O)N1Cc1c(F)cccc1F,MTT,>200 µM
COc1ccc(NC2=NS(=O)(=O)NC(Cc3ccccc3)=C2)cc1,MTT,>318 µM
CC(C)(C)OC(=O)N1CCCN(C(=O)OC(C)(C)C)CCN(C(=O)OC(C)(C)C)CCCN(CCCCC(=O)Nc2ccn([C@H]3CS[C@@H](COC(=O)CCCCN4CCCN(C(=O)OC(C)(C)C)CCN(C(=O)OC(C)(C)C)CCCN(C(=O)OC(C)(C)C)CC4)O3)c(=O)n2)CC1,-,50 µM
CCc1c(C(=O)c2cccc3ccccc23)n(COCCOC)c(=O)[nH]c1=O,MTT,164 µM
Cc1cn([C@H]2C[C@H](N=[N+]=[N-])[C@@H](COP(=O)(OCCSC(=O)C(C)(C)O)OCCSC(=O)C(C)(C)O)O2)c(=O)[nH]c1=O,-,>100 µM
Cc1cc(-c2ccc(C#N)o2)cc(C)c1Nc1ccnc(Nc2ccc(C#N)cc2)n1,MTT,10 µM
Cc1cc(C)c(Oc2ccc(N)c(NC3CCN(Cc4ccc(S(N)(=O)=O)cc4)CC3)n2)c(C)c1,MTT,26 µM
Cc1ccc(/C=N/NC(=O)c2csc(N3N=C(c4ccccc4)CC3c3ccc(Cl)cc3)n2)cc1,MTT / absorbance,>125 µM
O=S1(=O)NC(Cc2ccccc2)=CC(=NCc2ccccc2)N1,MTT,238 µM
O=C(Cc1ccc(CNCCCN2CCCC2)cc1)NCCCN1CCOCC1,MTT,>62.1 µM
CC(=O)Nc1nc(C)c(S(=O)(=O)N2CCC(NC(=O)c3cc(O)c(O)c(O)c3)CC2)s1,MTT,80 µM
Nc1ncnc2c1ncn2CCOCP(=O)(O)O,-,67 µM
Cc1cc(COCCC#N)cc(C)c1Nc1ccnc(Nc2ccc(C#N)cc2)n1,MTT,10 µM
C/C(=N\NC(N)=S)c1nc2ccc(Cl)cc2[nH]1,MTT,2.67 µg/mL
O=C(N/N=C/c1ccccc1[N+](=O)[O-])c1csc(N2N=C(c3ccccc3)CC2c2ccc(Cl)cc2)n1,MTT / absorbance,>125 µM
O=C(Cc1ccc(CC(=O)NCCCn2ccnc2)cc1)NCCCn1ccnc1,MTT,>306 µM
Cc1ccc(CN=C2C=C(Cc3ccc4ccccc4c3)NS(=O)(=O)N2)cc1,MTT,144 µM
CC(C)=CCn1c(=O)n2c3c(cc(Cl)cc31)S(=O)(=O)NC(C)C2,MTT,91 µM
C[C@@H]1O[C@@H](Oc2c(-c3cc(O)c(O)c(O)c3)oc3cc(O)cc(O)c3c2=O)[C@H](O)[C@H](O)[C@H]1O,-,>100 µg/mL

A second listing of 9 rows from above:

O=S1(=O)NC(Cc2ccc3ccccc3c2)=CC(=NC2CC2)N1 ; read by: MTT ; value: 218 µM
O=C(CSc1nncnc1-c1ccccc1Cl)Nc1cccnc1Cl ; read by: MTT ; value: 167 µM
Cc1ccnc2c1NC(=O)c1cccnc1N2C1CC1 ; read by: MTT ; value: >2 µM
Cc1cn([C@H]2C[C@H](N=[N+]=[N-])[C@@H](COP(=O)(OCCSC(=O)C(C)(C)O)OCCSC(=O)C(C)(C)O)O2)c(=O)[nH]c1=O ; value: >100 µM
CCN1C(C)C(=O)Nc2c([N+](=O)[O-])cc(Cl)cc2S1(=O)=O ; read by: MTT ; value: 105 µM
CC1CCCCN1CCCNCc1ccc(CC(=O)NCCCN2CCCCC2)cc1 ; read by: MTT ; value: >58.32 µM
Cc1cc(-c2ccc(N=Nc3ccc4c(S(=O)(=O)O)cc(S(=O)(=O)O)c(N)c4c3O)c(C)c2)ccc1N=Nc1ccc2c(S(=O)(=O)O)cc(S(=O)(=O)O)c(N)c2c1O ; value: 196 µM
CC(C)(C)OC(=O)N1CCCN(C(=O)OC(C)(C)C)CCN(C(=O)OC(C)(C)C)CCCN(CCCCC(=O)Nc2ccn([C@H]3CS[C@@H](COC(=O)CCCCN4CCCN(C(=O)OC(C)(C)C)CCN(C(=O)OC(C)(C)C)CCCN(C(=O)OC(C)(C)C)CC4)O3)c(=O)n2)CC1 ; value: 50 µM
O=C(Cc1ccc(CC(=O)NCCCn2ccnc2)cc1)NCCCn1ccnc1 ; read by: MTT ; value: >306 µM

Blank or dashed fields: not listed here. CCn is the concentration with n% toxicity to the cells.